Pooled drug test results. Numbers come from NIAID ChemDB, via PubChem.

Shared fields: tests in culture; organism: HIV-1; read by: RT activity; measure: EC50

Rows are shuffled and stem from different studies.

smiles	strain	changes	cell line	result
NCCCCCCNC(=O)/C=C/c1cn([C@H]2C=C[C@@H](CO)O2)c(=O)[nH]c1=O	IIIB		MT-4	>100 µM
Nc1nc2c(ncn2[C@@H]2O[C@H](CO)[C@@H](O)[C@H]2O)c(=O)o1	IIIB		CEM	7 µg/mL
CC(=O)N[C@@H](CS)C(=O)O	LAV		U1 (HIV-1 LAV IL-6 stimulated) + U1	<15000 µM
Cc1cn([C@H]2C[C@H](N=[N+]=[N-])[C@@H](CO)O2)c(=O)[nH]c1=O	IIIB		MT-4	0.0098 µM
O=c1[nH]c(=O)n([C@H]2C=C[C@@H](CO)O2)cc1C#CCCOC1CCCCO1	IIIB		MT-4	>100 µM
COc1cccc(C[C@H](NC(=O)c2cccc(O)c2C)[C@H](O)C(=O)N2CSC(C)(C)[C@H]2C(=O)NCc2c(C)cccc2C)c1	IIIB		PBMC	0.001 µM
Nc1nc2c(ncn2[C@@H]2O[C@H](COP(=O)(O)O)[C@@H](O)[C@H]2O)c(=O)o1	IIIB		CEM	4.1 µg/mL
Cc1cn([C@H]2C[C@H](N=[N+]=[N-])[C@@H](CO)O2)c(=O)[nH]c1=O	IIIB		MT-4	0.0098 µM
Cc1c(O)cccc1C(=O)N[C@@H](CSc1ccccc1)[C@H](O)CN1C[C@H]2CCCC[C@H]2C[C@H]1C(=O)NC(C)(C)C	052-52 PI-resistant	PR-L10R M46I L63P A71V V82T I84V	PBMC	0.176 µM
Cc1cn([C@H]2C[C@H](N=[N+]=[N-])[C@@H](CO)O2)c(=O)[nH]c1=O	HXB2-D184+294 (RT M184V P294S)	RT-M184V P294S	MT-4	0.014 µM
CC(C)CN(C[C@@H](O)[C@H](Cc1ccccc1)NC(=O)O[C@H]1CCOC1)S(=O)(=O)c1ccc(N)cc1	1002-60 PI-resistant	PR-L10I M46I I54V L63P V82F L90M	PBMC	0.194 µM
C[C@@H]1CC[C@H]2[C@@H](C)C(=O)O[C@@H]3OC4(C)CC[C@@H]1[C@]32OO4	LAV		PBMC	>100 µM
O=c1[nH]c(=O)n([C@H]2C=C[C@@H](CO)O2)cc1C#CCOC1CCCCO1	IIIB		MT-4	>100 µM
Nc1nc(N)c2ncn([C@H]3CO[C@@H](CO)O3)c2n1	IIIB		CBMC	0.97 µM
Nc1nc2c(ncn2[C@H]2CC[C@@H](CO)O2)c(=O)o1	IIIB		CEM	>500 µg/mL
Cc1nn([C@H]2C[C@H](N=[N+]=[N-])[C@@H](CO)O2)c(=O)[nH]c1=O	LAV Laboratory strain		PBMC (mitogen stimulated) + PBMC	>100 µM
Cc1cn([C@H]2C[C@H](N=[N+]=[N-])[C@@H](CO)O2)c(=O)[nH]c1=O	LAV		PBMC	0.003 µM
COc1ccc(C[C@H](NC(=O)c2cccc(O)c2C)[C@H](O)C(=O)N2CSC(C)(C)[C@H]2C(=O)NCc2ccccc2C)cc1	1002-60 PI-resistant	PR-L10I M46I I54V L63P V82F L90M	PBMC	0.017 µM
Cc1cn([C@H]2C[C@@H](CI)[C@@H](CO)O2)c(=O)[nH]c1=O	LAV		PBMC	>100 µM
NCC#Cc1cn([C@H]2C=C[C@@H](CO)O2)c(=O)[nH]c1=O	LAI		CEM + CEM-SS	>100 µM
Cc1cn([C@H]2C[C@@H](CO)[C@@H](COC(c3ccccc3)(c3ccccc3)c3ccccc3)O2)c(=O)[nH]c1=O	LAV		PBMC	3.3 µM
CC1(C)[C@@H](O[C@H]2O[C@H](C(=O)O)[C@@H](O)[C@H](O)[C@H]2O[C@@H]2O[C@H](C(=O)O)[C@@H](O)[C@H](O)[C@H]2O)CC[C@]2(C)[C@H]3C(=O)C=C4[C@@H]5C[C@@](C)(C(=O)O)CC[C@]5(C)CC[C@@]4(C)[C@]3(C)CC[C@@H]12			MT-4	170 µM
Cc1cccc(C)c1OCC(=O)N[C@@H](Cc1ccccc1)[C@@H](O)C[C@H](Cc1ccccc1)NC(=O)[C@H](C(C)C)N1CCCNC1=O	052-52 PI-resistant	PR-L10R M46I L63P A71V V82T I84V	PBMC	0.685 µM
Nc1nc2c(ncn2[C@H]2CO[C@@H](CO)O2)c(=O)[nH]1	IIIB		MT-4	0.051 µM
O=c1[nH]cnc2c1ncn2[C@H]1CC[C@@H](CO)O1	IIIB		H9	1.6 µg/mL
CC(C)(C)NC(=O)[C@@H]1C[C@@H]2CCCC[C@@H]2CN1C[C@@H](O)[C@H](Cc1ccccc1)NC(=O)[C@H](CC(N)=O)NC(=O)c1ccc2ccccc2n1	IIIB		MT-2	0.013 µM
Cc1ccccc1CNC(=O)[C@H]1N(C(=O)[C@@H](O)[C@H](Cc2ccccc2)NC(=O)c2cccc(O)c2C)CSC1(C)C	1026-40 PI-resistant	PR-L10I M46I I54V L63P A71V V82A L90M	PBMC	0.103 µM
COc1ccccc1CN[C@H]1C2CCN(CC2)[C@H]1C(c1ccccc1)c1ccccc1	89.6 R5X4 isolate		Macrophage + Monocytes/macrophages	>0.1 µM
C[C@@H]1CC[C@H]2[C@@H](C)CCO[C@@H]3OC4(C)CC[C@@H]1C32OO4	LAV		PBMC	50.2 µM

For reference, 3 entries again:

smiles | strain | changes | cell line | result
CC1(C)[C@@H](O[C@H]2O[C@H](C(=O)O)[C@@H](O)[C@H](O)[C@H]2O[C@@H]2O[C@H](C(=O)O)[C@@H](O)[C@H](O)[C@H]2O)CC[C@]2(C)[C@H]3C(=O)C=C4[C@@H]5C[C@@](C)(C(=O)O)CC[C@]5(C)CC[C@@]4(C)[C@]3(C)CC[C@@H]12 |  |  | MT-4 | 170 µM
Cc1cn([C@H]2C[C@@H](CO)[C@@H](COC(c3ccccc3)(c3ccccc3)c3ccccc3)O2)c(=O)[nH]c1=O | LAV |  | PBMC | 3.3 µM
Cc1cn([C@H]2C[C@H](N=[N+]=[N-])[C@@H](CO)O2)c(=O)[nH]c1=O | HXB2-D184+294 (RT M184V P294S) | RT-M184V P294S | MT-4 | 0.014 µM

ECn is the concentration giving n% inhibition of infection, replication or growth. An empty or dashed field is not shown.